Reference: patent US20070197446A1, “MHC binding peptides and their uses” (ProImmune Limited, priority 2006, published 2007)

B1: … (SEQ ID NO: 26) (peptide)
peptide: YIVEKANPV
modifications: not checked
ELISA (Absorption-Pass/Fail Control) (HLA-A*0201): 1.02 absorption
ELISA (Absorption-Pass/Fail Control) (HLA-B*0702): 0.11 absorption
ELISA (Absorption-Pass/Fail Control) (HLA-B*0801): 0.32 absorption

B2: … (SEQ ID NO: 41) (peptide)
peptide: KKHNGKLCD
modifications: not checked
ELISA (Absorption-Pass/Fail Control) (HLA-B*3501): -0.05 absorption
